# Data taken from US6413750B1, “(R)-specific alcohol dehydrogenases from lactobacillus with improved catalytic activity using an NAD+ substrate” (Forschungszentrum Jülich GmbH, priority 1998, dated 2002).
# Test: Temperature optimum of enzyme activity
# Format: biochemical, Lactobacillus brevis
# Protocol: The optimal temperature was determined for reductive reactions at pH 7.0 with the two coenzymes NADH and NADPH to be 55° C. in both cases. The temperature stability was determined as residual activity after 25 h incubation at various temperatures. At 37° C., still 95% reactivity was obtained; at 42° C. still 34%.
Substance,temperature optimum (determined with NADH),temperature optimum (measured with NADPH),"temperature optimum (pH 5.0, NADH)","temperature optimum (pH 5.0, NADPH)"
"mutant 1/1: L. brevis ADH mutant with exchanges A9G, R38L, K45M (SEQ ID NO 17) (SNRLDGKVGIITGGTLGIGLAIATKFVEEGAKVMITGLHSDVGEMAAKSV; OTHER INFORMATION: mutant 1/1)",about 40 °C,at least 65 °C,–,–
"mutant 2/2: L. brevis ADH mutant with exchanges A9G, R38L, H39L, K48M (SEQ ID NO 19) (SNRLDGKVGIITGGTLGIGLAIATKFVEEGAKVMITGLLSDVGEKAAMSV; OTHER INFORMATION: mutant 2/2)",–,–,50 °C,42 °C
